Anti-infective test results gathered from many reports (values: NIAID ChemDB through PubChem).

Common to all: whole-cell or culture tests; species: Measles virus; measure: EC50

ECn is the concentration giving n% inhibition of infection, replication or growth. Rows are shuffled and stem from different studies. An empty or dashed field is not shown.

{"compound": "C#Cc1c(C(N)=O)ncn1[C@@H]1O[C@H](CO)[C@@H](O)[C@H]1O", "cells": "VERO", "method": "plaque count", "strain or isolate": "Sugiyama", "value": "0.69 µg/mL"}
{"compound": "Cc1cn([C@@H]2C[C@@H](O)[C@H](CO)O2)c(=O)[nH]c1=O", "cells": "CV-1", "value": ">100 µM"}
{"compound": "C[C@@]1(O)[C@@H](CO)O[C@@H](n2ccc(=O)[nH]c2=O)[C@@H]1O", "cells": "VERO", "method": "plaque count", "strain or isolate": "Niigata-1", "value": ">500 µg/mL"}
{"compound": "NC(=O)c1c[se]c([C@@H]2O[C@H](CO)[C@@H](O)[C@H]2O)n1", "cells": "VERO", "method": "cytopathic effect", "strain or isolate": "Edmonston", "value": "1 µg/mL"}
{"compound": "Nc1ccn([C@@H]2C[C@@H](O)[C@H](CO)O2)c(=O)n1", "cells": "CV-1", "value": ">100 µM"}
{"compound": "CC1(C)[C@@H](O[C@H]2O[C@H](C(=O)O)[C@@H](O)[C@H](O)[C@H]2O[C@@H]2O[C@H](C(=O)O)[C@@H](O)[C@H](O)[C@H]2O)CC[C@]2(C)[C@H]3C(=O)C=C4[C@@H]5C[C@@](C)(C(=O)O)CC[C@]5(C)CC[C@@]4(C)[C@]3(C)CC[C@@H]12", "cells": "VERO", "method": "plaque count", "strain or isolate": "Sugiyama", "value": "1000 µg/mL"}
{"compound": "Nc1nc(=O)c2nc(-c3ccccc3)n([C@@H]3O[C@H](CO)[C@@H](O)[C@H]3O)c2c(=O)[nH]1", "cells": "HepG2.2.15", "method": "neutral red", "value": "0.5 µM"}
{"compound": "Nc1nccc2c1ncn2[C@@H]1O[C@H](CO)[C@@H](O)[C@H]1O", "cells": "VERO", "method": "cytopathic effect", "value": "≥40 µg/mL"}
{"compound": "Nc1nc2c(ncn2CCOCP(=O)(O)O)c(=O)[nH]1", "method": "neutral red", "strain or isolate": "Edmonston", "value": ">32 µg/mL"}
{"compound": "Nc1ncnc2c1ccn2[C@@H]1C[C@H](CO)[C@@H](O)[C@H]1O", "cells": "VERO", "method": "cytopathic effect", "value": "4 µg/mL"}
{"compound": "NC(=O)c1ncn([C@@H]2O[C@H](CO)[C@@H](O)[C@H]2O)n1", "cells": "VERO", "method": "plaque count", "strain or isolate": "Kitaken-1", "value": "6.8 µg/mL"}
{"compound": "C/C=C/Cc1cn([C@@H]2O[C@H](CO)[C@@H](O)[C@H]2O)c2ncnc(N)c12", "cells": "VERO", "method": "cytopathic effect", "value": ">100 µg/mL"}
{"compound": "Nc1ncnc2c1ncn2CC(O)C(=O)O", "cells": "VERO", "method": "plaque count", "strain or isolate": "Niigata-1", "value": "62 µg/mL"}
{"compound": "NC(=O)c1ncn([C@@H]2O[C@H](CO)[C@@H](O)[C@H]2O)n1", "cells": "VERO", "method": "cytopathic effect", "strain or isolate": "Sugiyama", "value": "8 µg/mL"}
{"compound": "Nc1ccn([C@@H]2C[C@H](CO)[C@@H](O)[C@H]2O)c(=O)n1", "cells": "VERO", "method": "cytopathic effect", "value": "0.7 µg/mL"}
{"compound": "NC(=O)c1ncn([C@@H]2O[C@H](CO)[C@@H](O)[C@H]2O)n1", "cells": "CV-1", "method": "neutral red", "strain or isolate": "SA", "value": "20 µg/mL"}
{"compound": "NC12CC3CC(CC(C3)C1)C2", "cells": "VERO", "method": "plaque count", "strain or isolate": "Kitaken-1", "value": "130 µg/mL"}
{"compound": "Nc1ncnc2c1ncn2C[C@H](O)CO", "cells": "VERO", "method": "cytopathic effect", "value": "40 µg/mL"}
{"compound": "Nc1ncnc2c1ncn2[C@@H]1C=C[C@@H](O)[C@H]1O", "cells": "VERO", "method": "plaque count", "strain or isolate": "Niigata-1", "value": "8.5 µg/mL"}
{"compound": "Nc1ncnc2c1c(Br)cn2[C@@H]1O[C@H](CO)[C@@H](O)[C@H]1O", "cells": "VERO", "method": "cytopathic effect", "value": "0.2 µg/mL"}
{"compound": "O=c1cnn([C@@H]2O[C@H](CO)[C@@H](O)[C@H]2O)c(=O)[nH]1", "cells": "VERO", "method": "plaque count", "strain or isolate": "Yamagata-1", "value": "0.74 µg/mL"}
{"compound": "Nc1nccc2c1ncn2[C@@H]1C[C@H](CO)[C@@H](O)[C@H]1O", "cells": "VERO", "method": "cytopathic effect", "value": "0.4 µg/mL"}

For reference, 3 entries again:

compound,cells,method,strain or isolate,value
C/C=C/Cc1cn([C@@H]2O[C@H](CO)[C@@H](O)[C@H]2O)c2ncnc(N)c12,VERO,cytopathic effect,,>100 µg/mL
CC1(C)[C@@H](O[C@H]2O[C@H](C(=O)O)[C@@H](O)[C@H](O)[C@H]2O[C@@H]2O[C@H](C(=O)O)[C@@H](O)[C@H](O)[C@H]2O)CC[C@]2(C)[C@H]3C(=O)C=C4[C@@H]5C[C@@](C)(C(=O)O)CC[C@]5(C)CC[C@@]4(C)[C@]3(C)CC[C@@H]12,VERO,plaque count,Sugiyama,1000 µg/mL
Nc1ccn([C@@H]2C[C@H](CO)[C@@H](O)[C@H]2O)c(=O)n1,VERO,cytopathic effect,,0.7 µg/mL